Results from PMC8933513 (2022).

Biological target: porcine aminopeptidase N ectodomain K374A (pig) (UniProt P15145)
Experiment: SPR; BIAcore X-100, room temperature; hAPN/pAPN WT or mutant immobilised on CM5 chips via amine coupling; serially diluted PDCoV RBD WT or mutant flowed over in HEPES buffer (0.01 M HEPES, 0.15 M NaCl, 0.5% surfactant P20, 3 mM EDTA, pH 7.4); steady-state affinity model; each of two experiments listed

“PDCoV RBD (receptor binding domain of the porcine deltacoronavirus spike protein), wild type (domain or fragment)” gave a pKd of 4.60.

pKd: −log10 of the molar value.
